Measured values from several laboratories, pooled; numbers as filed in NIAID ChemDB.

All rows: whole-cell or culture tests; organism: HIV-1; cell line: MT-4; endpoint: fold resistance

Fold resistance has wild type as its base.

SMILES	strain or isolate	changes	method	result
Cc1nnc(C[C@H](C[C@H](O)CN2CCN(Cc3ccc(-c4ccc(Cl)cc4)o3)C[C@H]2C(=O)NCC(F)(F)F)C(=O)N[C@H]2c3ccccc3OC[C@H]2O)o1	Q-60 Clinical isolate	PR-L10I N37S R41K M46I I54V I62V L63P A71V V77I V82A L90M I93L	p24	0.49
CCN[C@H]1CO[C@@H]2OCC[C@H](OC(=O)N[C@@H](Cc3ccccc3)[C@H](O)CN(CC(C)C)S(=O)(=O)c3ccc4nc(NC5CC5)sc4c3)[C@@H]21	NL4-3	L10I M46L I54V V82A	p24 / luminescence	1
CCCc1nnc(C[C@H](C[C@H](O)CN2CCN(C(C)(C)c3ncc(-c4ccc(Cl)cc4)o3)C[C@H]2C(=O)NCC(F)(F)F)C(=O)N[C@H]2c3ccccc3OC[C@H]2O)o1	V-18 Clinical isolate	PR-L10I M36I N37D M46I R57K L63P A71V G73S I84V L90M I93L	p24	≥7.875
CC(C)CN(C[C@@H](O)[C@H](Cc1ccccc1)NC(=O)[C@H](CC(N)=O)NC(=O)c1ccc2ccccc2n1)C(=O)NC(C)(C)C	NL4-3	PR-M46I L63P	p24	1
CCc1cc(NCc2nc3c(Cl)ccc(Cl)c3o2)c(=O)[nH]c1C	NL4-3	RT-Y181C	p24	>30
Cc1cn([C@H]2C[C@H](N=[N+]=[N-])[C@@H](CO)O2)c(=O)[nH]c1=O	126 3TC (RT-M184V)	RT-M184V	p24	0.5
CC(C)c1nc(CN(C)C(=O)N[C@H](C(=O)N[C@@H](Cc2ccccc2)C[C@H](O)[C@H](Cc2ccccc2)NC(=O)OCc2cncs2)C(C)C)cs1	NL4-3-P22 (PR D30N A71V)	PR-D30N A71V	p24	1.8
c1cc(CN2CCCNCCNCCCNCC2)ccc1CN1CCCNCCNCCCNCC1	NL4-3	L-CA resistant	-	2
Nc1ccn([C@H]2CC[C@@H](CO)O2)c(=O)n1	IIIB	ddI-1-resistant	-	2.14
CC(C)CN(C[C@@H](O)[C@H](Cc1ccccc1)NC(=O)O[C@H]1CCO[C@H]2OCC[C@H]21)S(=O)(=O)c1ccc2nc(NC3CC3)sc2c1	NL4-3	L23I E34Q K43I M46I I50L G51A L63P A71V V82A T91A	p24 / luminescence	0.3
COc1cncc(-c2cnc(C(C)(C)N3CCN(C[C@@H](O)C[C@@H](Cc4nnc(-c5ccccc5)o4)C(=O)N[C@H]4c5ccccc5OC[C@H]4O)[C@H](C(=O)NCC(F)(F)F)C3)o2)c1	K-60 Clinical isolate	PR-L10I M46I I54V Q58E L63P I64V V77I V82F I84V L90M I93L	p24	1
Nc1ccn([C@H]2CC[C@@H](CO)O2)c(=O)n1	HXB2-D (RT K65R M184V)	RT-K65R M184V	p24	12.9
CC(C)CN(C[C@@H](O)[C@H](Cc1ccccc1)NC(=O)O[C@H]1CCOC1)S(=O)(=O)c1ccc(N)cc1	NL4-3	L10I M46L I54V V82A	p24 / luminescence	>27
CC(C)(c1ncc(-c2ccc(Cl)cc2)o1)N1CCN(C[C@@H](O)C[C@@H](Cc2nnc(-c3ccccc3)o2)C(=O)N[C@H]2c3ccccc3OC[C@H]2O)[C@H](C(=O)NCC(F)(F)F)C1	K-60 Clinical isolate	PR-L10I M46I I54V Q58E L63P I64V V77I V82F I84V L90M I93L	p24	1
c1cc(CN2CCCNCCNCCCNCC2)ccc1CN1CCCNCCNCCCNCC1	NL4-3	D-CA-resistant	cytopathic effect / MTT	2
CN[C@H]1CO[C@@H]2OCC[C@H](OC(=O)N[C@@H](Cc3cccc(OC)c3)[C@H](O)CN(CC(C)C)S(=O)(=O)c3ccc4nc(NC(C)C)sc4c3)[C@@H]21	NL4-3	L10I I15V K20R L24I V32I M36I M46I L63P K70Q V82A I84V L89M	p24 / luminescence	0.8
O=C(N[C@H]1c2ccccc2OC[C@H]1O)[C@H](Cc1nnc(-c2ccccc2)o1)C[C@H](O)CN1CCN(Cc2ccc(-c3ccc(Cl)cc3)o2)C[C@H]1C(=O)NCC(F)(F)F	K-60 Clinical isolate	PR-L10I M46I I54V Q58E L63P I64V V77I V82F I84V L90M I93L	p24	≥0.51
CC(C)(C)NC(=O)[C@@H]1C[C@@H]2CCCC[C@@H]2CN1C[C@@H](O)[C@H](Cc1ccccc1)NC(=O)[C@H](CC(N)=O)NC(=O)c1ccc2ccccc2n1	NL4-3	PR-M46I	p24	1
CN[C@H]1CO[C@@H]2OCC[C@H](OC(=O)N[C@@H](Cc3ccccc3)[C@H](O)CN(CC(C)C)S(=O)(=O)c3ccc4nc(NC5CC5)sc4c3)[C@@H]21	NL4-3	L10F V32I L33F M46L I54M A71V	p24 / luminescence	1
CC(C)=CCN1c2cc(Cl)cc3[nH]c(=S)n(c23)C[C@@H]1C	-	RT-K70R Y181C	-	12.5
Cc1nnc(C[C@H](C[C@H](O)CN2CCN(C(C)(C)c3ncc(-c4ccc(Cl)cc4)o3)C[C@H]2C(=O)NCC(F)(F)F)C(=O)N[C@H]2c3ccccc3OC[C@H]2O)o1	Q-60 Clinical isolate	PR-L10I N37S R41K M46I I54V I62V L63P A71V V77I V82A L90M I93L	p24	≤0.032

2 of the rows above, restated:

SMILES	strain or isolate	changes	method	result
Cc1cn([C@H]2C[C@H](N=[N+]=[N-])[C@@H](CO)O2)c(=O)[nH]c1=O	126 3TC (RT-M184V)	RT-M184V	p24	0.5
O=C(N[C@H]1c2ccccc2OC[C@H]1O)[C@H](Cc1nnc(-c2ccccc2)o1)C[C@H](O)CN1CCN(Cc2ccc(-c3ccc(Cl)cc3)o2)C[C@H]1C(=O)NCC(F)(F)F	K-60 Clinical isolate	PR-L10I M46I I54V Q58E L63P I64V V77I V82F I84V L90M I93L	p24	≥0.51

Rows are shuffled and stem from different studies. An empty or dashed field is not shown.